According to article PMC9426601 (mBio, 2022):

Columns and labels:
A(H3N2) 100% PA/I38T = assay: antiviral treatment of infected ferrets; conditions: nasal washes 10 days, mean ± SD, tested form: phosphate
A(H3N2) 100% WT = assay: antiviral treatment of infected ferrets; conditions: nasal washes 10 days, mean ± SD, tested form: phosphate

**Q.** Which results are given for `CCOC(=O)C1=C[C@@H](OC(CC)CC)[C@H](NC(C)=O)[C@@H](N)C1` [Oseltamivir, oseltamivir]?
**A.** AUC (area under the curve of nasal wash viral titer) (A(H3N2) 100% PA/I38T): 16.5 ·; AUC (area under the curve of nasal wash viral titer) (A(H3N2) 100% WT): 19.7 ·; AUC (area under the curve of nasal wash viral titer) (A(H3N2) 100% WT; listed as oseltamivir): 19.7 ± 2.7
